Assay results from patent US9610264B2, “Compounds for the treatment and prevention of retroviral infections” (KFLP Biotech, LLC, priority 2012, dated 2017).

By UniProt entry, the sequences of proteins in these tests, tags left out. Residues count along the entry.
UniProt P13612, 34-1032 limits assumed: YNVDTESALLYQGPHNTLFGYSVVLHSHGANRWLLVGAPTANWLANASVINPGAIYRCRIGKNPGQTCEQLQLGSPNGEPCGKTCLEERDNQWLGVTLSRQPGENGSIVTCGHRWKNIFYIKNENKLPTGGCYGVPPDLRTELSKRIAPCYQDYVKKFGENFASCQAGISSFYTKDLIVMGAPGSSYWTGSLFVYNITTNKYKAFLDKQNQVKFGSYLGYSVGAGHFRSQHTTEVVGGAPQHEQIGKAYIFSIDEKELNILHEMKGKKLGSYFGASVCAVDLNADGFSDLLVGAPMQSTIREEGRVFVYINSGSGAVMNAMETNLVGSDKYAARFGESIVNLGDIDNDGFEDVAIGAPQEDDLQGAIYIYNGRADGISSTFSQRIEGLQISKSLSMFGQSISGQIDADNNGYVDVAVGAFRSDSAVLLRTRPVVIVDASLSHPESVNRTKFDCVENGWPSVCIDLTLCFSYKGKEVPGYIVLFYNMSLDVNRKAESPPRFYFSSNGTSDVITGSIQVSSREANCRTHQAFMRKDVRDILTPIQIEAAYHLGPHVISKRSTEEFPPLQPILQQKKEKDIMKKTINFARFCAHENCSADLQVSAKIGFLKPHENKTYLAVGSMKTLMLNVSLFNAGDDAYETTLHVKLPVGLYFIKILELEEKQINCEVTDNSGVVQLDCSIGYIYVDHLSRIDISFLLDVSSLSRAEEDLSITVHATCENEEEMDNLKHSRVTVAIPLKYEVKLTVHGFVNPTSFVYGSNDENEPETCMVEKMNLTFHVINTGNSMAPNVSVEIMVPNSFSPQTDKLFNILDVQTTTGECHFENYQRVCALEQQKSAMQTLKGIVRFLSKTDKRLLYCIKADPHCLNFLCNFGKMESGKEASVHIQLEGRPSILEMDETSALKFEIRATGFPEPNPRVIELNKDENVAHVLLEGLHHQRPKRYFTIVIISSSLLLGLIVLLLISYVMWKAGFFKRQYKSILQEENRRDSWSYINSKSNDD
UniProt P26010, 20-798 limits assumed: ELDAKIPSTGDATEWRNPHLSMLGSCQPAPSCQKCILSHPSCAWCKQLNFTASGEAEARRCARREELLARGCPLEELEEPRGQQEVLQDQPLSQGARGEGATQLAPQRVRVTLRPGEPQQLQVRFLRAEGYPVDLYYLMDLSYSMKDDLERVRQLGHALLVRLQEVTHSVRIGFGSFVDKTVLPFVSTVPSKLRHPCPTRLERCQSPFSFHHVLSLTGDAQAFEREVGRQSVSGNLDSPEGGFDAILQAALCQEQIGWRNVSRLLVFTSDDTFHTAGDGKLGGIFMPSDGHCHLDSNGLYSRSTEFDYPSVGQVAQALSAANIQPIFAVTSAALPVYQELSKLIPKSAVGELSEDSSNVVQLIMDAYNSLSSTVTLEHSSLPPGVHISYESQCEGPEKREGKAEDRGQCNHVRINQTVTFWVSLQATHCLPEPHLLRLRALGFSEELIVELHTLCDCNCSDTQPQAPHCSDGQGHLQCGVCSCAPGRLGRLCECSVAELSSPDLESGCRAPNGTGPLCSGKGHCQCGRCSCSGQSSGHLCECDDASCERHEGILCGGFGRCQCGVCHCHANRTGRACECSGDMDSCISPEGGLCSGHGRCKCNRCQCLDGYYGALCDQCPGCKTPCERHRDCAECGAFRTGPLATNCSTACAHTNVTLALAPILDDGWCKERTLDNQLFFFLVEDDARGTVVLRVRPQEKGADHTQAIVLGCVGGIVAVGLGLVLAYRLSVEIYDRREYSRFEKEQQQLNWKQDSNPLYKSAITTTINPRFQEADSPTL

Biological target: binding of HIV associated glycoprotein gp120 and the integrin α4β7 (Homo sapiens (Human), UniProt P13612+P26010)
Test: ELISA assay of gp120 binding to integrin α4β7
Conditions: read-out: IC50 a4b7, inhibition of gp120/α4β7 binding, triplicate with two anti-gp120 antibodies
Description: A sandwich assay was developed to screen for compounds that inhibit the binding of a4b7 to gp120. Without inhibitors, gp120 and a4b7 bind and this complex can be identified by addition of a mouse anti-gp120 mAb (step 3). This a4b7*gp120anti-gp120 mAb complex is then sequestered on the bottom surface of a 96 welled-plate coated with an anti-mouse secondary mAb (step 4). The complex is then detected by addition of a biotinylated primary mAb against a4b7 (step 5) and detected using an HRP-avidin (step 6). A positive binding event is identified by the presence of HPR activity within each well. The addition of an inhibitor (step 2) blocks the binding between gp120 and a4b7 leading to a lack or reduction of HRP activity as shown in steps 2-5 at the bottom of the figure.
Step 1: Prepare the antigen plate • a. Prepare a PBS stock solution containing 1 μM gp120 and 1 μM α4β7 • b. Add a 200 μL aliquot to each well of the antigen plate.
Step 2: Add the inhibitor. • a. Add 20 μL of a 10× stock of the inhibitor in PBS pH 7.2 containing 1% DMSO • b. Incubate at 4° C. for 6 h with shaking. This delivers the antigen plate.
Step 3: Prepare the binding plate. • a. Aspirate each well of the binding plate • b. Wash three times with 200 μL of wash buffer (PBS pH 7.2, containing 0.05% Tween 20). • c. Add 100 μL of a 0.5 μg/mL stock of the mouse anti-gp120 mAb in PBS pH 7.2 • d. Shake for 1 h at 23° C.
Step 4: Sequester the gp120*α4β7 complex. • a. Aspirate each well of the binding plate. • b. Wash three times with 200 μL of wash buffer. • c. Transfer the contents of the antigen plate to the corresponding wells in the binding plate. • d. Shake for 1 h at 23° C.
Step 5: Develop the binding plate. • a. Aspirate each well of the binding plate. • b. Wash three times with 200 μL of wash buffer. • c. Add 100 μL of a 0.1 μg/mL of the rat anti-α4β7 mAb. • d. Shake for 1 h at 37° C. • e. Aspirate each well of the binding plate. • f. Wash three times with 200 μL of wash buffer. • g. Add 100 μL of 0.2 μg/mL solution of the HRP-conjugated strepavidin • h. Shake for 1 h at 37° C. • i. Aspirate each well of the binding plate. • j. Wash three times with 200 μL of wash buffer. • k. Develop using QuantaBlu fluorogenic peroxidase substrate (ThermoScientific) • l. Evaluate the fluorescence output on a HTS7000 plate reader (Perkin Elmer).
The ELISA assay was applied to screen the compounds in the table, below, to further characterize their activity against the binding of HIV associated glycoprotein gp120 and the integrin α4β7.
The five-step assay developed was applied to screen the compounds in the table below. […] The experiments were run in triplicate using two antibodies against gp120.

Row | Structure (SMILES) | IC50 [nM]
1 | Cc1ccc(CNC(=O)c2ccccc2NC(=O)CN2CCc3ccccc3C2)cc1 | 1.64
2 | CC(C)C(=O)Nc1cccc(C(=O)Nc2ccccc2C(=O)NCc2ccccc2)c1 | 0.98
3 | CC(NC(=O)c1ccccc1NC(=O)CN1CCN(Cc2ccccn2)CC1)c1ccccc1 (stereo not shown) | 4.67
4 | CCOC(=O)N1CCN(CC(=O)Nc2ccccc2C(=O)NCc2ccccc2)CC1 | 2.64
